These are literature values, as cited in PMC12020373, “Improving pKa Predictions with Reparameterized Force Fields and Free Energy Calculations” (2025).

Series [1] concerns the target Cys403 (UniProt position 403, RPVIACRAGVG).
Series [2] concerns the target Cys403 (UniProt position 403, RPVINCRAGVG).

As for “protein tyrosine phosphatase YopH H402A (Yersinia (species not stated); H402A)”, the pKa in the series with Cys403 [1] is reported as 7.35.
For “protein tyrosine phosphatase YopH H402N (Yersinia (species not stated); H402N)”, the pKa with Cys403 [2] is 5.99.
